For some assays here: Which two values form the index is not stated here.
Experiments:
[1] = system: SARS-CoV-2 (hCoV-19/Japan/TY/WK-521/2020 strain); test: CPE suppression effect confirmation test (SARS-CoV-2, Vero E6/TMPRSS2 cells), antiviral activity; assay type: cell-based
[2] = system: influenza virus (A/WSN/33 (H1N1) strain); test: CPE suppression effect confirmation test (influenza virus, RPMI 2650 cells), antiviral activity; assay type: cell-based

Structure (SMILES)	SARS-CoV-2 SI (Selectivity Index) [1]	Influenza SI (Selectivity Index) [2]
N#C[C@@]1(c2c[nH]c3c(N)ncnc23)O[C@H](CO)[C@@H](O)[C@H]1O [Compound I-048]	>12.2	–
OC[C@H]1N[C@@H](c2ccc3c(NO)ncnn23)[C@H](O)[C@@H]1O [Compound I-020]	–	>24.8
Nc1ncnn2c([C@@H]3O[C@](F)(CO)[C@@H](O)C3(F)F)ccc12 [Compound I-008]	–	61.6
CC(C)(C)OC(=O)N1[C@H](CO)[C@@H](O)[C@@H](O)[C@@H]1c1cc(N)c2c(N)ncnn12 [Compound I-024]	3.83	6.47
N/C(=N\O)c1cc([C@@H]2N[C@H](CO)[C@@H](O)[C@H]2O)n2ncnc(N)c12 [Compound I-016]	>318	–
CC(O)c1cc([C@@H]2N[C@H](CO)[C@@H](O)[C@H]2O)c2ncnc(N)n12 (some centres unmarked) [Compound I-038]	–	>113
CC1(C)O[C@@H]2[C@H](O1)[C@@H](CO)N[C@H]2c1cc(/C=N/O)c2c(N)ncnn12 [Compound I-018]	–	>472
Nc1ncnn2c([C@@H]3N[C@H](CO)[C@@H](O)[C@H]3O)cc(O)c12 [Compound I-022]	125	>4.76
Cn1ccc(-c2cc([C@H]3[C@@H]4OC(C)(C)O[C@@H]4[C@@H](CO)N3C(=O)OC(C)(C)C)n3ncnc(N)c23)n1 [Compound I-030]	–	>65.4
